Tests used:
Set-up in all cases: species or system SubtypeB
[1] = molecular target: T1, Human immunodeficiency virus type 1 reverse transcriptase (Human immunodeficiency virus 1, UniProt Q72547, Y181C); assay: Inhibition of Human immunodeficiency virus 1 subtype B reverse transcriptase Y181C mutant by filter-based filtration assay
[2] = molecular target: T2, Human immunodeficiency virus type 1 reverse transcriptase (Human immunodeficiency virus 1, UniProt Q72547); assay: Inhibition of RNA-dependent DNA polymerase activity of wild-type Human immunodeficiency virus 1 subtype B reverse transcriptase by filter-based filtration assay
[3] = molecular target: T2, Human immunodeficiency virus type 1 reverse transcriptase; assay: Inhibition of Human immunodeficiency virus 1 subtype B reverse transcriptase DNA-dependent DNA polymerase activity by gel-based primer extension assay
[4] = molecular target: T3, Human immunodeficiency virus type 1 reverse transcriptase (Human immunodeficiency virus 1, UniProt Q72547, G190A); assay: Inhibition of Human immunodeficiency virus 1 subtype B reverse transcriptase G190A mutant by filter-based filtration assay
[5] = molecular target: T3, Human immunodeficiency virus type 1 reverse transcriptase; assay: Inhibition of DNA-dependent DNA polymerase activity of wild-type Human immunodeficiency virus 1 subtype B reverse transcriptase G190A mutant by filter-based filtration assay
[6] = molecular target: T1, Human immunodeficiency virus type 1 reverse transcriptase; assay: Inhibition of DNA-dependent DNA polymerase activity of wild-type Human immunodeficiency virus 1 subtype B reverse transcriptase Y181C mutant by filter-based filtration assay

Which IC50 [1] does the source give for `Cc1cc(C#N)cc(C)c1Oc1nc(Nc2ccc(C#N)cc2)nc(N)c1Br` [ETRAVIRINE] here?
The IC50 was 257 nM.

And the IC50 [2]?
The IC50 was 175 nM.

And the IC50 [3]?
The IC50 was 97 nM.

What about the IC50 [4] of the same molecule?
The IC50 was 191 nM.

What about the IC50 [5] of the same molecule?
The IC50 was 129 nM.

And the IC50 [6]?
The IC50 was 107 nM.
